The test system of data set [1] is Gram-negative ATCC strains (K. pneumoniae 13883 and 700603, P. aeruginosa 10145 and 27853). Conditions: for Therapeutic index MHC/MIC: Hmax/GM. The source says: (§1) We determined the therapeutic index of each peptide, which we defined as the ratio of Maximum Hemolytic Activity (Hmax) to MIC50 (Hmax/MIC50).
(§2) The therapeutic index (TI) is a ratio of the toxic dose of a substance to its therapeutically-active dose and can be calculated different ways (e.g., LD50/ED50). Here, we calculated a TI value for each peptide against all the Gram-positive or the Gram-negative ATCC strains, by dividing its Hmax by its MIC50 for the given group of strains. […] Additionally, to make our quantitative analysis more robust [geometric mean (Khachatryan et al., [2017]) and fold values], we have included MIC50 values for these peptides against S. aureus and K. pneumoniae that we previously obtained using the same assay, the M7-A7 method of the National Committee for Clinical Laboratory Standards (Leon-Calvijo et al., [2015]).

Data set [2] relates to Gram-positive ATCC strains (E. faecalis 29212, S. aureus 25923 and 33591). The note with it: for Therapeutic index MHC/MIC: Hmax/GM.
Description: as §1, §2

The subject of data set [3] is clinical isolates of Gram-positive bacteria (Enteroccocus faecium, Staphylococcus aureus). Kind of data set: Therapeutic index, Gram-positive clinical isolates.
Description: as §1
(§3) The results are shown in Table 7 (Gram-positive) and Table 8 (Gram-negative). Regarding the Gram-positive bacteria, the palindromic, dimeric and tetrameric peptides were active chiefly against S. aureus. This trend was consistent with results of the experiments on the ATCC strains, in which these peptides were only active against the sensitive strain of the […] bacteria.

In data set [4] the test system is clinical isolates of Gram-negative bacteria (Klebsiella pneumoniae, Pseudomonas aeruginosa). Kind of data set: Therapeutic index, Gram-negative clinical isolates.
Description: as §1, §3

From article PMC5840262, “Design, Synthesis and Evaluation of Branched RRWQWR-Based Peptides as Antibacterial Agents Against Clinically Relevant Gram-Positive and Gram-Negative Pathogens” (Frontiers in Microbiology, 2018) come the findings set out here.

Bridge positions count the residues as written; N and C are the ends. Square brackets hold non-standard residues; d marks the D form. Peptide text beside a SMILES is read from it. I, II: the chains in the order shown. Ahx = NCCCCCC(=O)O

For the compound `CSCC[C@H](NC(=O)[C@H](CCCNC(=N)N)NC(=O)[C@H](Cc1c[nH]c2ccccc12)NC(=O)[C@H](CCC(N)=O)NC(=O)[C@H](Cc1c[nH]c2ccccc12)NC(=O)[C@H](CCCNC(=N)N)NC(=O)[C@H](CCCNC(=N)N)NC(=O)[C@H](CS)NC(=O)[C@H](CCCCN)NC(=O)[C@@H](N)Cc1ccccc1)C(=O)N[C@@H](CCCCN)C(=O)N[C@@H](CCCCN)C(=O)N[C@@H](CC(C)C)C(=O)NCC(=O)N[C@@H](C)C(N)=O` [LfcinB (17–31), reference compound], the “Therapeutic index MHC/MIC” value is 0.2 in data set [1] and 0.6 in data set [2].
Turning to `N=C(N)NCCC[C@H](NC(=O)[C@H](Cc1c[nH]c2ccccc12)NC(=O)[C@H](CCC(N)=O)NC(=O)[C@H](Cc1c[nH]c2ccccc12)NC(=O)[C@H](CCCNC(=N)N)NC(=O)[C@@H](N)CCCNC(=N)N)C(=O)NCCCC[C@H](NC(=O)[C@H](CCCNC(=N)N)NC(=O)[C@H](Cc1c[nH]c2ccccc12)NC(=O)[C@H](CCC(N)=O)NC(=O)[C@H](Cc1c[nH]c2ccccc12)NC(=O)[C@H](CCCNC(=N)N)NC(=O)[C@@H](N)CCCNC(=N)N)C(=O)NCCCCCC(N)=O` [LfcinB (20–25)2] (I: H-RRWQWRK[Ahx]-NH2 / II: H-RRWQWR; amide I:7-II:C; N-terminus assumed), the “Therapeutic index Fold (TI peptide / TI tetrameric peptide)” value in data set [1] was 0.8; in data set [2], 0.3; in data set [3], 0.4; in data set [4], 0.6. The figures for the “Therapeutic index MHC/MIC” value in data set [1] and in data set [2] were 6.2 and 10.2, respectively. Also, the “Therapeutic index MHC/MIC50” value in data set [3] was found to be 6.1; in data set [4] it was 6.0.
In the case of “(RRWQWR)4K2Ahx2C2 (disulfide) [LfcinB (20–25)4, branched tetrameric peptide (RRWQWR)4K2Ahx2C2, two dimers linked by a cysteine disulfide bridge]”, the “Therapeutic index Fold (TI peptide / TI tetrameric peptide)” value in data set [1], in data set [2], in data set [3] and in data set [4] was 1.0 throughout. Besides, the “Therapeutic index MHC/MIC” value is 7.6 in data set [1] and 31.8 in data set [2]. In addition, the “Therapeutic index MHC/MIC50” value in data set [3] is given as 14.4; in data set [4], 10.4.
